# Laboratory results from paper PMC6604316 (Virology Journal, 2019).
# Biological target: NA of A/Texas/12/2007 (H3N2 119E) (Influenza A virus (A/Texas/12/2007(H3N2)), UniProt D1FVK3)
# Details: control virus A/Texas/12/2007 (H3N2 119E); reference
substance,measurement,value
oseltamivir carboxylate,Fold change,1 fold
